Test system: breakthrough viruses (SHIV162P3, animal # 19302)
Assay: Susceptibility of pseudotyped breakthrough viruses in TZM-bl assay
Format: cell-based, simian-human immunodeficiency virus
Settings: plasma of animal # 19302 collected 21 days after challenge, env sequenced and pseudotyped

CC(C)C[C@@H]1NC(=O)CNC(=O)[C@H](CC(C)C)NC(=O)[C@H](CO)NC(=O)[C@H](CCCCN)NC(=O)[C@@H]2CSSC[C@@H](C(=O)N[C@H](C(N)=O)C(C)C)NC(=O)[C@H](C)NC(=O)[C@@H]3CSSC[C@H](NC(=O)[C@H](Cc4ccccc4)NC(=O)[C@H](Cc4cnc[nH]4)NC(=O)[C@H](CC(C)C)NC(=O)[C@H](CC(N)=O)NC(=O)CCSSC[C@H](NC(=O)[C@H](CCCNC(=N)N)NC(=O)CNC(=O)[C@H](CC(C)C)NC1=O)C(=O)N[C@@H](C)C(=O)N1CCC[C@@H]1C(=O)N[C@@H]([C@@H](C)O)C(=O)N[C@@H](Cc1ccc(OCC4CCCCC4)cc1)C(=O)N3)C(=O)N[C@@H](CCC(N)=O)C(=O)N[C@@H](CC(C)C)C(=O)N[C@@H](CCCNC(=N)N)C(=O)N2 [M48U1]
Susceptibility of breakthrough viruses to M48U1: fully susceptible
